Compound potency records, mixed from different reports. Data source: NIAID ChemDB in PubChem.

Common to all: target-level tests; species: HIV-1; protein: Reverse transcriptase; method: nucleotide incorporation / radiometric; measure: IC50

ICn is the concentration giving n% inhibition. Lines come from different laboratories, so protocols vary. An empty or dashed field is not shown. Two numbers with a dash give a range or band.

SMILES	strain	changes	result
CCN1c2ncc(CCOc3ccc(CCC(=O)NN)c4ccccc34)cc2C(=O)N(C)c2cccnc21		RT-Y188L	>1 µM
Cc1cc(C)c(-n2nnnc2SCC(=O)Nc2ccc(F)cc2Br)c(C)c1			<2 µM
CCN1c2ncc(CCOc3ccc(CC(N)=O)c4ccccc34)cc2C(=O)N(C)c2cccnc21		RT-V106A	0.1–1 µM
Cc1cc(C)c(-n2nnnc2SCC(=O)Nc2ccc(-n3cccn3)cc2)c(C)c1			<2 µM
Cc1c(Cc2ccc(F)cc2)nc(SCc2ccc([N+](=O)[O-])cc2)[nH]c1=O		RT-181I	>400 µM
Cc1cc(C)c(-n2nnnc2SCC(=O)Nc2ccc(C)c([N+](=O)[O-])c2)c(C)c1			<2 µM
CCN1c2ncc(CCOc3ccc(CC(=O)NN)c4ccccc34)cc2C(=O)N(C)c2ccc(NN)nc21	WT		<0.1 µM
Cc1cn([C@H]2CC[C@@H](COP(=O)(O)OP(=O)(O)OP(=O)(O)O)O2)c(=O)[nH]c1=O		RT-I135M	0.09 µM
CCC1(c2ccc(COc3ccccc3)cc2)Oc2ccccc2-n2cccc2C1=O		RT-Y188L	2.3 µM
Cc1cc(C)c(-n2nnnc2SCC(=O)Nc2cc(C)ccc2Cl)c(C)c1			<2 µM
CCN1c2ncc(CCOc3ccc(/C(C)=C/C(=O)O)c4ccccc34)cc2C(=O)N(C)c2cccnc21		RT-Y188L	>1 µM
Cc1c(Cc2c(Cl)cccc2Cl)nc(SCc2cccc(C#N)c2)[nH]c1=O		RT-181I	>400 µM
CCN1c2ncc(CCOc3ccc(C(=O)O)c4ccccc34)cc2C(=O)Nc2c(C)cc(Cl)nc21		RT-K103N Y181C	0.1–1 µM
Cc1c(Cc2c(Cl)cccc2Cl)nc(SCc2ccc(O)cc2)[nH]c1=O	WT		>400 µM
CCC1(c2ccc(COc3cccc(Cl)c3)cc2)Oc2ccccc2-n2cccc2C1=O		RT-K103N	0.3 µM
CCN1c2ncc(COc3ccccc3C(=O)OC)cc2C(=O)N(C)c2ccc(Cl)nc21		RT-Y181C	>1 µM
Cc1c(Cc2c(Cl)cccc2Cl)nc(SCc2ccc3c(c2)OCO3)[nH]c1=O		RT-181I	>400 µM
CCN1c2ncc(COc3cccc(C(N)=O)c3)cc2C(=O)N(C)c2ccc(Cl)nc21		RT-Y181C	<1 µM
CCN1c2ncc(CCOc3ccc(CC(C)C(=O)O)c4ccccc34)cc2C(=O)Nc2c(C)cc(Cl)nc21		RT-K103N Y181C	0.1–1 µM
CCN1c2ncc(COc3cc[n+]([O-])c(C(F)(F)F)c3)cc2C(=O)N(C)c2ccc(Cl)nc21	WT		<1 µM
CCC1(c2ccc(CNc3cccc(F)c3)cc2)Oc2ccccc2-n2cccc2C1=O		RT-Y188L	>10 µM
CCN1c2ncc(CCCc3ccccc3)cc2C(=O)N(C)c2cccnc21		RT-Y181C	>1 µM
CCC1(c2cccc(N)c2)Oc2ccccc2-n2cccc2C1=O		RT-Y181I	>10 µM
CCN1c2ncc(COc3ccc(C(=O)OC)cc3)cc2C(=O)N(C)c2ccc(Cl)nc21		RT-Y181C	>1 µM
CCC1(c2ccc(I)cc2)Oc2ccccc2-n2cccc2C1=O		RT-L100I	1.8 µM
Cc1cc(C)c(-n2nnnc2SCC(=O)Nc2ccc(Cl)cn2)c(C)c1			<2 µM
CCN1c2ncc(CCOc3ccc(CC(=O)O)c4ccccc34)cc2C(=O)N(C)c2ccc(F)nc21		RT-K103N Y181C	0.1–1 µM
Cc1c(Cc2c(Cl)cccc2Cl)nc(SCc2ccc(Cl)cc2)[nH]c1=O		RT-181I	>400 µM
CCN1c2ncc(CCOc3ccc(C(=O)O)c4ccccc34)cc2C(=O)N(C)c2ccc(Cl)nc21		RT-V106A	0.1–1 µM
CCN1c2ncc(CCc3ccccc3)cc2C(=O)Nc2c(C)ccnc21	WT		<1 µM
CCC1(c2cccc(Cl)c2)Cc2ccccc2-n2cccc2C1=O	WT		3.3 µM
CCN1c2ncc(CN(C)c3ccccc3)cc2C(=O)N(C)c2ccc(Cl)nc21		RT-Y181C	>1 µM
C=C(CC(=O)O)c1ccc(OCCc2cnc3c(c2)C(=O)N(C)c2cccnc2N3CC)c2ccccc12	WT		<0.1 µM

The last 3 rows once more:

SMILES	strain	changes	result
CCC1(c2cccc(Cl)c2)Cc2ccccc2-n2cccc2C1=O	WT		3.3 µM
CCN1c2ncc(CN(C)c3ccccc3)cc2C(=O)N(C)c2ccc(Cl)nc21		RT-Y181C	>1 µM
C=C(CC(=O)O)c1ccc(OCCc2cnc3c(c2)C(=O)N(C)c2cccnc2N3CC)c2ccccc12	WT		<0.1 µM